Measured values from several laboratories, pooled; numbers as filed in NIAID ChemDB.

Shared fields: enzyme or target tests; target: CCR5; read by: radiometric; read-out: IC50

Lines come from different laboratories, so protocols vary.

SMILES | value
Cc1ccc(-c2ccc3c(c2)C=C(C(=O)Nc2ccc(C[N+](C)(C)C4CCOCC4)cc2)CCO3)cc1 | 0.0014 µM
CCCCOCCOc1ccc(-c2ccc3c(c2)C=C(C(=O)Nc2ccc(S(=O)Cc4nccn4C(C)C)cc2)CCN3CC(C)C)cc1 | 0.0084 µM
CN1CC(C(=O)N(CCCN2CCC(C(=O)c3ccc(F)cc3)CC2)c2ccccc2)CC1=O | 1.9 µM
CCN(C(=O)Cc1ccc(S(C)(=O)=O)cc1)C1CCN(CCC(c2ccccc2)N2CCN(S(=O)CC)CC2)CC1 | 0.014 µM
CCCCOCCOc1ccc(-c2ccc3c(c2)C=C(C(=O)Nc2ccc(CN(C)C4CCOCC4)cc2)CCN3Cc2nccs2)cc1 | 0.012 µM
C=CCN(C(=O)OCc1ccc([N+](=O)[O-])cc1)C1CCN(C[C@@H]2CN(C(=O)C3CCCC3)C[C@@]2(O)c2ccccc2)CC1 | 0.386 µM
O=C(C1CCNCC1)N(CCCN1CCC(Cc2ccccc2)CC1)c1ccccc1 | 4.3 µM
Cc1ccc(-c2ccc3c(c2)C=C(C(=O)Nc2ccc(CN(C)C4CCOCC4)cc2)CCO3)cc1 | 0.53 µM
CN1CC(C(=O)N(CCCN2CCCCC2)c2ccccc2)CC1=O | >10 µM
CCCCOCCOc1ccc(-c2ccc3c(c2)C=C(C(=O)Nc2ccc(S(=O)Cc4nccs4)cc2)CCN3CC(C)C)cc1 | 0.043 µM
C=C(C)[C@H]1CC[C@@]2(C)CC[C@]3(C)C[C@@H]4[C@H](/C(C)=C\C[C@H]3[C@H]12)[C@H](O)C[C@@H]4C | >33 µM
Cc1ccc(-c2ccc3c(c2)C=C(C(=O)Nc2ccc(CN(C)C4CCSCC4)cc2)CCO3)cc1 | 1.6 µM
CCN(C(=O)Cc1ccc(S(C)(=O)=O)cc1)C1CCN(CCC(c2ccccc2)N2CCC(C(C)=O)CC2)CC1 | 0.309 µM
CCOCCCOc1ccc(-c2ccc3c(c2)C=C(C(=O)Nc2ccc(CN(C)C4CCOCC4)cc2)CCS3(=O)=O)cc1 | 0.068 µM
Cc1ccc(-c2ccc3c(c2)C=C(C(=O)Nc2ccc(CN(C)C4CCOCC4)cc2)CCS3(=O)=O)cc1 | 0.2 µM
CCCCOCCOc1ccc(-c2ccc3c(c2)C=C(C(=O)Nc2ccc([S@@](=O)Cc4nncn4CCC)cc2)CCN3CC(C)C)cc1 | 0.0015 µM
O=C(C1CCCCC1)N(CCCN1CCC(Cc2ccccc2)CC1)c1ccccc1 | 0.24 µM
Cc1ccc(-c2ccc3c(c2)C=C(C(=O)Nc2ccc(C[N+](C)(C)C4CCOCC4)cc2)CCC3)cc1 | 0.0014 µM
C=C(C)[C@H]1CC[C@@]2(C)CC[C@]3(C)C[C@@H]4[C@H](/C(CO)=C\C[C@H]3[C@H]12)[C@H](O)C[C@@H]4C | >33 µM
O=S(=O)(c1ccccc1)N1C[C@@H](CN2CCC(c3ccccc3)CC2)[C@](O)(c2ccccc2)C1 | ~10 µM
CN1CC(C(=O)N(CCCN2CCC(Cc3ccc(F)cc3)CC2)c2ccccc2)CC1=O | 0.31 µM
CCN(C(=O)NCc1ccc(S(C)(=O)=O)cc1)C1CCN(CCC(c2ccccc2)N2CCN(S(=O)(=O)CC)CC2)CC1 | 0.006 µM
CCCCOCCOc1ccc(-c2ccc3c(c2)C=C(C(=O)Nc2ccc(S(=O)(=O)Cc4cncn4CCC)cc2)CCN3CC(C)C)cc1.CCOC(C)=O | 0.033 µM
CCN(C(=O)Cc1ccc(S(C)(=O)=O)cc1)C1CCN(CCC(c2cccc(F)c2)C2CCN(C(=O)Nc3ccccc3)CC2)CC1 | 0.006 µM
CC(=O)N1CCC(C(=O)Nc2ccc(CN(C)C3CCOCC3)cc2)=Cc2cc(-c3ccc(N4CCOCC4)cc3)ccc21 | 0.2 µM
CC(=O)N1CCC(C(=O)N(CCCN2CCC(Cc3ccccc3)CC2)c2ccc(Cl)c(Cl)c2)CC1 | 0.0019 µM
CN(CC(CCN1CCC(c2ccccc2)CC1)c1ccccc1)S(=O)(=O)c1ccccc1 | 0.03 µM
CCCCOCCOc1ccc(-c2ccc3c(c2)C=C(C(=O)Nc2ccc(CN(C)C4CCOCC4)cc2)CCN3c2ccccc2)cc1 | 0.0056 µM
Cc1ccc(-c2ccc3c(c2)C=C(C(=O)Nc2ccc(CN(C)C4CCOCC4)cc2)CCN3C)cc1 | 0.13 µM
CC(=O)N1CCC(C(=O)N(CCCN2CCC(Cc3ccc(F)cc3)CC2)c2ccc(C)c(Cl)c2)CC1 | 0.00029 µM
CCCCOCCOc1ccc(-c2ccc3c(c2)C=C(C(=O)Nc2ccc(S(=O)c4ccccn4)cc2)CCN3CCC)cc1 | 0.45 µM
O=C(c1ccccc1)N1CCC(C(=O)N(CCCN2CCC(Cc3ccccc3)CC2)c2ccccc2)CC1 | 0.033 µM
CCC(CC)N(C)Cc1ccc(NC(=O)C2=Cc3cc(-c4ccc(C)cc4)ccc3OCC2)cc1 | 0.64 µM
CCN(C(=O)Cc1ccc(S(C)(=O)=O)cc1)C1CCN(CCC(c2ccccc2)C2CCN(C)CC2)CC1 | 0.001 µM
CC(=O)N1CCCC(C(=O)N(CCCN2CCC(Cc3ccccc3)CC2)c2ccccc2)C1 | 0.68 µM
Cc1ccc(-c2ccc3c(c2)C=C(C(=O)Nc2ccc(CN(C)C4CCC(=O)CC4)cc2)CCO3)cc1 | 0.63 µM

4 of the rows above, restated:

{"SMILES": "CC(=O)N1CCC(C(=O)Nc2ccc(CN(C)C3CCOCC3)cc2)=Cc2cc(-c3ccc(N4CCOCC4)cc3)ccc21", "value": "0.2 µM"}
{"SMILES": "CCCCOCCOc1ccc(-c2ccc3c(c2)C=C(C(=O)Nc2ccc(S(=O)Cc4nccs4)cc2)CCN3CC(C)C)cc1", "value": "0.043 µM"}
{"SMILES": "CN1CC(C(=O)N(CCCN2CCC(Cc3ccc(F)cc3)CC2)c2ccccc2)CC1=O", "value": "0.31 µM"}
{"SMILES": "Cc1ccc(-c2ccc3c(c2)C=C(C(=O)Nc2ccc(CN(C)C4CCOCC4)cc2)CCO3)cc1", "value": "0.53 µM"}

ICn: concentration for n% inhibition.